Measured values from several laboratories, pooled; numbers as filed in NIAID ChemDB.

All rows: tests on isolated targets; species: Herpes simplex virus 1; protein: Thymidine kinase; read-out: IC50

ICn is the concentration giving n% inhibition.

O=c1[nH]c(=O)n([C@@H]2O[C@H](CO)[C@@H](O)[C@@H]2F)cc1/C=C/Cl ; strain or isolate: F ; value: <200 µM
COc1ccc(S(=O)(=O)NC[C@H]2O[C@@H](n3cc(C)c(=O)[nH]c3=O)C[C@@H]2O)cc1 ; value: >200 µM
CCOC(=O)/C=C/c1cn([C@@H]2O[C@H](CO)[C@@H](O)[C@@H]2F)c(=O)nc1N ; strain or isolate: F ; value: >200 µM
O=c1[nH]c(=O)n([C@H]2C[C@H](O)[C@@H](CO)O2)cc1C(F)(F)F ; value: 0.25 µM
O=C(NC[C@H]1O[C@@H](n2cc(I)c(=O)[nH]c2=O)C[C@@H]1O)c1ccccc1 ; value: 85 µM
CCc1cn([C@H]2C[C@H](O)[C@@H](CNC(=O)C(C)Oc3ccccc3)O2)c(=O)[nH]c1=O ; value: 0.18 µM
CCCCC(=O)NC[C@H]1O[C@@H](n2cc(I)c(=O)[nH]c2=O)C[C@@H]1O ; value: 38 µM
O=c1[nH]c(=O)n([C@@H]2O[C@H](CO)[C@@H](O)[C@@H]2F)cc1/C=C/Br ; strain or isolate: F ; value: <200 µM
O=c1[nH]c(=O)n(C/C=C\COC(c2ccccc2)(c2ccccc2)c2ccccc2)cc1/C=C/Br ; value: >100 µM
CCc1cn([C@H]2C[C@H](O)[C@@H](COS(C)(=O)=O)O2)c(=O)[nH]c1=O ; value: 8.1 µM
CC(=O)NC[C@H]1O[C@@H](n2cc(I)c(=O)[nH]c2=O)C[C@@H]1O ; value: >200 µM
CCc1cn([C@H]2C[C@H](O)[C@@H](CO)O2)c(=O)[nH]c1=O ; value: 0.34 µM
CCCCCC(=O)OC/C=C/Cn1cc(C)c(=O)[nH]c1=O ; value: 11 µM
CCc1cn([C@@H]2O[C@H](CO)[C@@H](O)[C@@H]2F)c(=O)nc1N ; strain or isolate: F ; value: >200 µM
Cc1cn(C/C=C/COC(=O)CC(C)(C)C)c(=O)[nH]c1=O ; value: 28 µM
C#C[C@H]1O[C@@H](n2cc(C)c(=O)[nH]c2=O)C[C@@H]1O ; strain or isolate: B3 ; value: 6 µM
CCc1cn([C@H]2C[C@H](O)[C@@H](CNC(=O)c3ccccc3)O2)c(=O)[nH]c1=O ; value: 3.1 µM
C=Cc1cn([C@@H]2O[C@H](CO)[C@@H](O)[C@@H]2F)c(=O)nc1N ; strain or isolate: F ; value: >200 µM
Cc1cn([C@H]2C[C@H](O)[C@@H](CNS(=O)(=O)CCCS(=O)(=O)O)O2)c(=O)[nH]c1=O ; value: >200 µM

2 of the rows above, restated:

C#C[C@H]1O[C@@H](n2cc(C)c(=O)[nH]c2=O)C[C@@H]1O ; strain or isolate: B3 ; value: 6 µM
CCc1cn([C@H]2C[C@H](O)[C@@H](CNC(=O)c3ccccc3)O2)c(=O)[nH]c1=O ; value: 3.1 µM

Lines come from different laboratories, so protocols vary.